From patent publication US20240208970A1, “SUBSTITUTED HYDANTOIN COMPOUNDS, METHODS FOR PREPARATION THEREOF AND USE THEREOF IN THE TREATMENT AND/OR PREVENTION OF A CORONA VIRUS DISEASE” (priority 2021, published 2024) come the findings set out here.

By IC50 is commonly meant the point on the concentration scale where inhibition reaches its midpoint. Higher therefore signals lower potency.

The assay addresses SARS-CoV-2 M^pro protease (Severe acute respiratory syndrome coronavirus 2 (2019-nCoV) (SARS-CoV-2), UniProt P0DTD1). The note with it: Tables 5B-5E; M^pro 75 nM, substrate 10 μM.

Regarding `O=C1NC2(CC(c3ccccc3Cl)C2)C(=O)N1c1cncc2c1CCCC2` (stereo not shown), the IC50 amounted to 145 nM.
